A mixed list of measured activities; the numbers were collected in NIAID ChemDB.

All rows: growth or infection tests; agent: Hepatitis C virus; read-out: EC50

ECn: concentration that inhibits the pathogen or its effect by n%. Conditions beyond the fields shown may differ between rows. Blank or dashed fields: not listed here. a–b is a range or a potency band.

| structure | strain or isolate | method | conditions | result |
|---|---|---|---|---|
| CC1(C)CC(=O)C2=C(C1)Nc1c(O)cccc1NC2c1ccncc1 | 1b | luciferase / reporter gene / replicon | - | >100 µM |
| O=C(NS(=O)(=O)C1CC1)c1c(-c2ccc[nH]c2=O)c2c3occc3cc(F)c2n1Cc1cc(F)ccc1F | - | replicon | - | <0.5 µM |
| CCCCCN(C)c1ccc(N(C(=O)COC(C)=O)c2nc(-c3cccnc3)cs2)cc1C(F)(F)F | - | - | - | <1 µM |
| CN1CCN(c2cc3c(cc2F)c(=O)c(-c2noc(CC4CCCC4)n2)cn3Cc2ccc(C(F)(F)F)cc2F)CC1 | 1b | replicon | - | <10 µM |
| Fc1ccc(-c2ccc3nc(NCc4ccc(-c5csnn5)cc4)nc(NCC(F)(F)F)c3n2)cc1 | - | replicon | - | <0.1 µM |
| NC(=O)c1ccc(Cn2c(C(=O)O)c(-c3ccc[nH]c3=O)c3c4occc4c(F)cc32)cc1 | - | replicon | - | <0.5 µM |
| CC1(C)CC(=O)C2=C(C1)Nc1c(O)cccc1N[C@H]2c1ccc(OCc2ccccc2)cc1Cl | 1b | luciferase / reporter gene / replicon | - | 5.98 µM |
| O=C(O)c1sc(-c2ccc(-c3cc4ncccn4n3)cc2)cc1N(C(=O)c1ccc(Cl)cc1F)C1CCOC1 | 1a | luciferase / replicon | - | 0.1–0.5 µM |
| Cc1ccc(C(=O)Nc2ccc(-c3cc(N(C(=O)C4CCC(C)CC4)C(C)C)c(C(=O)O)s3)cc2)o1 | 1b | replicon | - | <0.5 µM |
| CN1CCN(c2cc3c(cc2F)c(=O)c(-c2noc(Cc4ccc(F)cc4)n2)cn3Cc2ccc(Cl)cc2)CC1 | 1b | replicon | - | >10 µM |
| CC(=O)N1c2cccc(O)c2NC2=C(C(=O)CC(C)(C)C2)C1c1ccc(C(F)(F)F)cc1 | 1b | luciferase / reporter gene / replicon | - | 8.47 µM |
| CC(C)COc1ccc(N(C(N)=O)c2nc(-c3cccnc3)cs2)cc1C(F)(F)F | - | - | - | <1 µM |
| CC1CCC(C(=O)N(c2cc(-c3ccc(NC(=O)c4cscn4)nc3)sc2C(=O)O)C(C)C)CC1 | 1a | replicon | - | <0.5 µM |
| CCCCCCCCOc1ccc(N(C(C)=O)c2nc(-c3cccnc3)cs2)cc1 | - | - | - | <1 µM |
| Cc1cccnc1C(=O)Nc1ccc(-c2cc(N(C(=O)C3CCC(C)CC3)C(C)C)c(C(=O)O)s2)cc1 | 1a | replicon | - | <0.5 µM |
| CC(C)N(C(=O)c1ccc(C(F)(F)F)cc1C(F)(F)F)c1cc(-c2ccc(-c3cc4ncccn4n3)cc2)sc1C(=O)O | 1a | luciferase / replicon | - | 0.1–0.5 µM |
| CS(=O)(=O)N(CCO)c1cccc(-c2ccc3nc(NCc4ccc(S(N)(=O)=O)cc4)nc(NCC(F)(F)F)c3n2)c1 | - | replicon | - | <0.1 µM |
| CCCCCCCCOc1ccc(N(C(=O)CN(C)C)c2nc(-c3cccnc3)c(F)s2)cc1C(F)(F)F | - | - | - | <1 µM |
| CCOc1nc(NCc2ccc(F)cc2)nc2ccc(-c3ccc(NC(=O)C4CC4)nc3)nc12 | - | replicon | - | <0.1 µM |
| CC1(C)CC(=O)C2=C(C1)Nc1c(O)cccc1N(C(=O)c1cccc(Cl)n1)[C@H]2c1ccc(OCc2ccccc2)cc1F | 1b | luciferase / reporter gene / replicon | - | 0.2 µM |
| CCOc1nc(N)nc2c1ncn2[C@@H]1O[C@@H]2COP(=O)(OC(C)C)O[C@H]2[C@@]1(C)F | 2a | replicon | 31 d | 0.42 µM |
| CCCCCCCCOc1ccc(N(C(C)=O)c2nc(-c3cccnc3)c(F)s2)cc1C(F)(F)F | - | - | - | <1 µM |
| CC(C)N(C(=O)c1ccc(Cl)cc1F)c1cc(-c2ccccc2)sc1C(=O)O | 1b | replicon / ELISA | - | 1–5 µM |
| CC1(C)CC(=O)C2=C(C1)Nc1c(O)cccc1N(C(=O)CCC(=O)NCc1ccco1)C2c1ccc(OCc2ccccc2)cc1Cl | 1b | luciferase / reporter gene / replicon | - | 6.75 µM |
| Cc1ccc(C(=O)N(c2cc(-c3ccc(-c4cc5ncccn5n4)cc3)sc2C(=O)O)C(C)C)c(C)c1 | 1b | luciferase / replicon | - | 0.05–0.1 µM |
| CC1CCC(C(=O)N(CC(F)(F)F)c2cc(-c3ccc(NC(=O)c4cscn4)cc3)sc2C(=O)O)CC1 | 1b | replicon | - | <0.5 µM |
| CS(=O)(=O)NC(=O)c1c(-c2ccc[nH]c2=O)c2c3occc3c(F)cc2n1Cc1csc(C(N)=O)c1 | - | replicon | - | <0.5 µM |
| CC1CCC(C(=O)N(c2cc(-c3ccc(NC(=O)c4cnc[nH]4)cc3)sc2C(=O)O)C(C)C)CC1 | 1a | replicon | - | <0.5 µM |
| CN1CCN(c2cc3c(cc2F)c(=O)c(-c2noc(Cc4ccc(F)cc4)n2)cn3C2(c3ccc(C(F)(F)F)cc3)CC2)CC1 | 1b | replicon | - | <0.5 µM |
| CC1(C)CC(=O)C2=C(C1)Nc1c(O)cccc1N(C(=O)c1ccc(C#N)cc1)[C@H]2c1ccc(OCc2ccccc2)cc1F | 1b | luciferase / reporter gene / replicon | - | 2.08 µM |
| CN1CCN(c2cc3c(cc2F)c(=O)c(-c2noc(Cc4ccc(F)cc4)n2)cn3Cc2ccc(Cl)cc2F)CC1 | 1b | replicon | - | <2 µM |
| CCc1nc(C(=O)N2c3cccc(O)c3NC3=C(C(=O)CC(C)(C)C3)C2c2ccc(OCc3ccccc3)cc2F)c(C)o1 | 1b | luciferase / reporter gene / replicon | - | 29.81 µM |
| NC(=O)COc1ccc2c(c1)S(=O)(=O)N=C(c1c(O)c3cc(F)ccc3n(CCC3CC3)c1=O)N2 | 1a 36941 | replicon | - | 0.18 µM |
| O=C(NS(=O)(=O)C1CC1)c1c(-c2ccc[nH]c2=O)c2c3occc3c(F)cc2n1Cc1ccccc1F | - | replicon | - | <0.5 µM |
| O=c1c(-c2noc(Cc3ccccc3)n2)cn(Cc2ccc(C(F)(F)F)cc2)c2cc(NCCN3CCOCC3)c(F)cc12 | 1b | replicon | - | <10 µM |
| O=C(O)c1sc(-c2ccc(-c3cc4ncccn4n3)cc2)cc1N(C(=O)c1ccc(Cl)cc1Cl)C1CCOC1 | 1b | luciferase / replicon | - | 0.005–0.01 µM |
| CN1CCN(c2cc3c(cc2F)c(=O)c(-c2noc(C4(c5ccccc5)CC4)n2)cn3Cc2ccc(C(F)(F)F)cc2F)CC1 | 1b | replicon | - | >10 µM |
| Cn1cc(C2Nc3cccc(O)c3NC3=C2C(=O)CC(C)(C)C3)c2ccccc21 | 1b | luciferase / reporter gene / replicon | - | >10 µM |
| O=C(O)c1c(-c2ccc[nH]c2=O)c2c3scnc3ccc2n1Cc1ccc(F)cc1F | - | replicon | - | >1.5 µM |
| CC(C)N1CCC(NS(=O)(=O)c2cc(-c3ccc4nc(NCc5ccc(S(N)(=O)=O)cc5)nc(NCC(F)(F)F)c4n3)ccc2Cl)CC1 | - | replicon | - | <0.1 µM |
| NC(=O)N(c1ccc(OCC2CCCCC2)c(F)c1)c1nc(-c2cccnc2)cs1 | - | - | - | <1 µM |
| NS(=O)(=O)c1ccc(CNc2nc(NCC(F)(F)F)c3nc(-c4ccc(F)c(Cl)c4)ccc3n2)cc1 | - | replicon | - | <0.1 µM |
| O=C(O)c1c(-c2ccc[nH]c2=O)c2c3occc3c(F)cc2n1Cc1ccc2nc[nH]c2c1 | - | replicon | - | <0.5 µM |
| CCCCCOc1ccc(N(C(N)=O)c2nc(-c3ccc(F)cc3)cs2)cc1F | - | - | - | <1 µM |

Again, the opening 2 rows:

{"structure": "CC1(C)CC(=O)C2=C(C1)Nc1c(O)cccc1NC2c1ccncc1", "strain or isolate": "1b", "method": "luciferase / reporter gene / replicon", "result": ">100 µM"}
{"structure": "O=C(NS(=O)(=O)C1CC1)c1c(-c2ccc[nH]c2=O)c2c3occc3cc(F)c2n1Cc1cc(F)ccc1F", "method": "replicon", "result": "<0.5 µM"}